A mixed list of measured activities; the numbers were collected in NIAID ChemDB.

Shared fields: whole-cell or culture tests; species: Vesicular stomatitis virus; cells: E6SM; method: cytopathic effect; measure: EC50

ECn is the concentration giving n% inhibition of infection, replication or growth.

smiles,result
N#Cc1cncc([C@H]2O[C@H](CO)[C@@H](O)[C@@H]2O)c1,≥100 µg/mL
OC[C@H]1O[C@@H](c2cc(C#CBr)c(F)cc2F)C[C@@H]1O,>400 µg/mL
O=c1[nH]c(=O)n([C@H]2C[C@H](O)[C@@H](CO)O2)cc1C1CC1,>1500 µM
OC[C@H]1O[C@@H](c2cc(/C=C/I)c(F)cc2F)C[C@@H]1O,>400 µg/mL
O=c1c2ncn(COC(CO)CO)c2nc2[nH]c(-c3ccccc3)cn12,>175 µg/mL
Nc1ccn([C@@H]2OC[C@H](CO)[C@H]2O)c(=O)n1,>400 µg/mL
OC[C@H]1O[C@H](c2cncc(Br)c2)[C@@H](O)[C@H]1O,≥100 µg/mL
Nc1nc(-n2c(-c3ccccc3)nc3ccc(Br)cc3c2=O)nnc1-c1cccc(Cl)c1Cl,>80 µg/mL
NC(=S)c1cncc([C@H]2O[C@H](CO)[C@@H](O)[C@@H]2O)c1,≥100 µg/mL
CC(C)(C)c1cn([C@H]2C[C@H](O)[C@@H](CO)S2)c(=O)[nH]c1=O,>1500 µM
OC[C@H]1O[C@@H](c2cncc(Br)c2)[C@@H](O)[C@@H]1O,≥100 µg/mL
CC(C)(C)c1cn([C@H]2C[C@H](O)[C@@H](CO)O2)c(=O)[nH]c1=O,>1500 µM
NC(=S)c1cncc([C@@H]2O[C@H](CO)[C@@H](O)[C@@H]2O)c1,≥100 µg/mL
COc1cc(Cc2cnc(-n3c(C)nc4ccc(Br)cc4c3=O)nc2N)cc(OC)c1OC,>80 µg/mL
Cc1cn([C@@H]2OC[C@H](CO)[C@H]2N=[N+]=[N-])c(=O)[nH]c1=O,>80 µg/mL
O=c1[nH]c(=O)n([C@H]2C[C@H](O)[C@@H](CO)S2)cc1C1CCCCC1,>1200 µM
O=c1[nH]c(=O)n(C2CC(O[N+](=O)[O-])C(CO)O2)cc1F,>400 µg/mL
Cc1cn([C@H]2OC[C@@H](CO)C2F)c(=O)[nH]c1=O,>80 µg/mL
CCCc1cn([C@H]2C[C@H](O)[C@@H](CO)O2)c(=O)[nH]c1=O,>1500 µM
NC(=O)c1cncc([C@@H]2O[C@H](CO)[C@H](O)[C@@H]2O)c1,≥100 µg/mL
CCc1nc(-n2c(-c3ccccc3)nc3ccc(Br)cc3c2=O)nc(N)c1-c1ccc(Cl)cc1,>16 µg/mL
Nc1nc(F)nc2c1ncn2[C@@H]1C=C(CO)[C@@H](O)[C@H]1O,1 µg/mL
NC(=O)c1cncc([C@H]2O[C@H](CO)[C@@H](O)[C@@H]2O)c1,≥100 µg/mL

For reference, 3 entries again:

| smiles | result |
|---|---|
| NC(=S)c1cncc([C@@H]2O[C@H](CO)[C@@H](O)[C@@H]2O)c1 | ≥100 µg/mL |
| NC(=S)c1cncc([C@H]2O[C@H](CO)[C@@H](O)[C@@H]2O)c1 | ≥100 µg/mL |
| O=c1c2ncn(COC(CO)CO)c2nc2[nH]c(-c3ccccc3)cn12 | >175 µg/mL |

Lines come from different laboratories, so protocols vary.